The results in this text go back to ChEMBL document CHEMBL1671674, “Induction of multidrug resistance mechanism in Escherichia coli biofilms by interplay between tetracycline and ampicillin resistance genes” (2009).

The subject of the assay is Escherichia coli. As to conditions: K-12 substr. MG1655.

By MIC is commonly meant the lowest concentration that inhibits growth of the organism. Read a high MIC as a need for much substance.

Take GENTAMICIN: 0.5 µg/mL was the least that counted as inhibitory (MIC).
